Results on one compound are retold here after ChEMBL document CHEMBL1154785, “Identification of critical ligand binding determinants in Mycobacterium tuberculosis adenosine-5'-phosphosulfate reductase” (J Med Chem, 2009).

The experiment can be described thus: Binding affinity to Mycobacterium tuberculosis adenosine-5'-phosphosulfate reductase assessed as S-sulfocysteine formation at pH 5.5 by single turnover method in absence of thioredoxin.

SMILES strings stand for the structures. pKd: −log10 of the molar value.

As for `Nc1ncnc2c1ncn2[C@@H]1O[C@H](COP(=O)(O)OP(=O)(O)F)[C@@H](O)[C@H]1O`, the pKd is 5.60.

As a reminder, the pKd is the negative decadic logarithm of the Kd, by convention in mol/L.
